Experimental data from patent US11807625B2, “Capsid inhibitors for the prevention of HIV” (Gilead Sciences, Inc., priority 2019, dated 2023).

Experiment: Plasma concentration vs. time profile of Compound Ib in rhesus after single subcutaneous dose (SHIV challenge study)
Format: in vivo, rhesus macaques
[1] = rhesus animals that became infected, SC Compound Ib

CC(C)(C#Cc1ccc(-c2ccc(Cl)c3c(NS(=O)(=O)C4CC4)nn(CC(F)F)c23)c([C@H](Cc2cc(F)cc(F)c2)NC(=O)Cn2nc(C(F)F)c3c2C(F)(F)[C@@H]2C[C@H]32)n1)S(C)(=O)=O [Compound Ib, N—((S)-1-(3-(4-chloro-3-(cyclopropanesulfonamido)-1-(2,2-difluoroethyl)-1H-indazol-7-yl)-6-(3-methyl-3-(methylsulfonyl)but-1-yn-1-yl)pyridin-2-yl)-2-(3,5-difluorophenyl)ethyl)-2-((3b S,4aR)-3-(difluoromethyl)-5,5-difluoro-3b,4,4a,5-tetrahydro-1H-cyclopropa[3,4]cyclopenta[1,2-c]pyrazol-1-yl)acetamide]
mean IQ at 1 week prior to the first detectable plasma virus [1]: 0.78±0.36
mean IQ at the 2 weeks prior to the first detectable plasma virus [1]: 0.85±0.33
Compound Ib concentration corresponding to an inhibitory quotient (IQ) of 1 (rhesus plasma): 30 nM
Compound Ib concentration corresponding to an inhibitory quotient (IQ) of 4 (rhesus plasma): 121 nM
